The supplement of paper PMC9262897, “Low-cost anti-mycobacterial drug discovery using engineered E. coli” (Nature Communications, 2022)
± gives the standard deviation of the averaged measurements. The list shows a part of the results, in another mix than the full data.

system: E. coli TESEC Mtb Alr; test: growth (OD600 after 10 h); higher = more growth (less inhibition); settings: arabinose 100 nM; compound 0.1 mM; raw OD600 reference: median of DMSO wells 0.413, cell-free background 0.052
Experimental: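 TESEC Mtb Alr E. coli (ΔaraC ΔtolC ΔentC Δalr ΔdadX, arabinose-inducible Mtb Alr) or the Alr+ wild-type control strain, grown in defined M9-fructose medium without D-alanine in 96-well plates with Prestwick library compounds at 0.1 mM and 1% DMSO. Low Alr induction is 0.1 µM arabinose and high induction is 10 mM arabinose.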

Row | SMILES | growth
1 | COc1cc(Br)c(C[N+]2(CCOCCC3CCC4CC3C4(C)C)CCOCC2)cc1OC (configuration not stated) [Pinaverium bromide] | 0.0525 ± 0.0023

same assay, conditions: arabinose 10000000 nM; compound 0.1 mM; raw OD600 reference: median of DMSO wells […], cell-free background 0.052

Row | SMILES | growth
2 | COc1cc(Br)c(C[N+]2(CCOCCC3CCC4CC3C4(C)C)CCOCC2)cc1OC (configuration not stated) [Pinaverium bromide] | 0.0511 ± 0.0003
